Measured values from several laboratories, pooled; numbers as filed in NIAID ChemDB.

Shared fields: whole-cell or culture tests; agent: HIV-1

Inhibition is in % at the dose shown (toxicity tests: loss of growth or viability). An empty or dashed field is not shown. Fold resistance has wild type as its base. Neighbouring rows are from separate reports.

compound	dose	strain or isolate	read by	changes	setting	cells	read-out	value
O=C(NCCc1ccccc1)Nc1nc2c(Cl)cccc2s1	1 µg/mL	-	cytopathic effect / XTT	-	-	MT-4	inhibition	4%
CCCCCCCCCCCCCCCCOP(=O)(OC[C@H]1OC(O)[C@@H](O)[C@@H](O)[C@@H]1O)OC[C@H]1O[C@@H](n2cc(C)c(=O)[nH]c2=O)C[C@@H]1N=[N+]=[N-]	1 µM	LAV-Bru	RT activity	-	7 d	CEM	inhibition	90%
C/C=C/CSc1cc(NC(=S)c2ccsc2C)ccc1Cl	-	NL4-3	p24	RT-Y181C	-	CEM + CEM-SS	fold resistance	6
CCc1c(Sc2ccccc2)n(COCc2ccccc2)c(=S)[nH]c1=O	-	IIIB	syncytia	RT-E138K	-	CEM	fold resistance	30
Cc1ccnc(NC(=O)NCCc2ccccc2)n1	10 µg/mL	-	cytopathic effect / XTT	-	-	MT-4	inhibition	64%
CC(C)c1c(Sc2ccccc2)n(COCc2ccccc2)c(=O)[nH]c1=O	-	IIIB	syncytia	RT-E138K	-	CEM	fold resistance	6.67
Cc1cc(OCCCS(N)(=O)=O)ccc1NC(=O)COc1ccc(Cl)cc1C(=O)c1cc(F)cc(C(F)(F)F)c1	-	HXB2 (RT-K103N Y181C) Recombinant	β-galactosidase	RT-K103N Y181C	-	HeLa + HELA CD4+	fold resistance	~1
Cc1ccc(C2CC2)c(-c2ccc3c(c2C)CCCO3)c1[C@H](OC(C)(C)C)C(=O)O	-	NL4-3	luminescence	PI-resistant ARP-11801 (L10F/G16A/L33F/K43T/L63P/A71V/V82A)	-	MT-4	fold resistance	1
CCc1c(Sc2cc(C)cc(C)c2)n(COCCO)c(=S)[nH]c1=O	-	IIIB	syncytia	RT-Y181C	-	CEM	fold resistance	137.5
Cc1cc(S(N)(=O)=O)ccc1NC(=O)COc1ccc(Cl)cc1C(=O)c1cccc(C#N)c1	-	HXB2	β-galactosidase	RT-Y181C	-	HeLa + HELA CD4+	fold resistance	~1
CCOCn1c(Cc2cc(C)cc(C)c2)c(CC)c(=O)[nH]c1=O	-	IIIB	syncytia	RT-Y188H	-	CEM	fold resistance	1000
Cc1cc(S(N)(=O)=O)ccc1NC(=O)COc1ccc(Cl)cc1C(=O)c1cc(C#N)cc(C#N)c1	-	Nevirapine-resistant (RT Y181C)	cytopathic effect / propidium iodide	RT-Y181C	-	MT-4	fold resistance	~1
CCOCn1c(Sc2ccccc2)c(C(C)C)c(=O)[nH]c1=O	-	IIIB	syncytia	RT-E138K	-	CEM	fold resistance	18
O=C(COc1ccc(Cl)cc1C(=O)c1ccco1)Nc1ccc2cn[nH]c2c1	-	HXB2 (RT-K103N Y181C) Recombinant	β-galactosidase	RT-K103N Y181C	-	HeLa + HELA CD4+	fold resistance	~100
C[C@H]1[C@H](O)[C@@H](C)/C=C/C=C/C=C/C=C/C=C/C=C/C=C/[C@H](O[C@@H]2O[C@H](C)[C@@H](O)[C@H](N)[C@@H]2O)C[C@@H]2O[C@](O)(C[C@@H](O)C[C@@H](O)CC[C@H](O)[C@@H](O)C[C@@H](O)CC(=O)O[C@H]1C)C[C@H](O)[C@H]2C(=O)O	10.9 µM	92RW009 CLADE A X4/R5(SI)	p24 / RT activity	-	-	PBMC	inhibition	90%
Cc1cc(S(N)(=O)=O)ccc1NC(=O)COc1ccc(Cl)cc1C(=O)c1cc(F)cc(C#N)c1	-	HXB2	β-galactosidase	RT-V106I Y181C	-	HeLa + HELA CD4+	fold resistance	~10
CCc1c(Sc2cc(C)cc(C)c2)n(COCCO)c(=O)[nH]c1=O	-	IIIB	syncytia	RT-Y181C	-	CEM	fold resistance	290
Cc1cc(S(N)(=O)=O)ccc1NC(=O)COc1ccc(Cl)cc1C(=O)c1cc(Cl)cc(Cl)c1	-	HXB2 (RT-K103N Y181C) Recombinant	β-galactosidase	RT-K103N Y181C	-	HeLa + HELA CD4+	fold resistance	~1
Cc1cn([C@H]2C[C@H](N=[N+]=[N-])[C@@H](COP(=O)(O)OCCO[C@H]3O[C@H](CO)[C@@H](O)[C@H](O)[C@@H]3O)O2)c(=O)[nH]c1=O	5 µM	LAV-Bru	RT activity	-	11 d	U-937	inhibition	0%
Cc1ccc(C2CC2)c(-c2cc(F)c3c(c2C)CCCO3)c1[C@H](OC1CC1)C(=O)O	-	NL4-3	luminescence	NRTI/NNRTI resistant NLAY351717	-	MT-4	fold resistance	1
CCCCCCCCCCCCCCCCOP(=O)(OCCO[C@@H]1O[C@H](CO)[C@@H](O)[C@H](O)[C@@H]1O)OC[C@H]1O[C@@H](n2cc(C)c(=O)[nH]c2=O)C[C@@H]1N=[N+]=[N-]	0.2 µM	LAV-Bru	RT activity	-	14 d	U-937	inhibition	0%
S=C(NCCc1ccccc1)N1CCCc2ccccc21	10 µg/mL	-	cytopathic effect / XTT	-	-	MT-4	inhibition	0%
Cc1cc(S(N)(=O)=O)ccc1NC(=O)COc1ccc(Cl)cc1C(=O)c1cccc(C#N)n1	-	HXB2 (RT-K103N Y181C) Recombinant	β-galactosidase	RT-K103N Y181C	-	HeLa + HELA CD4+	fold resistance	~1
CCC(=O)c1ccc(F)c([C@@H]2C[C@@H]2NC(=O)Nc2ccc(C#N)cn2)c1O	-	LAI	β-galactosidase / luminescence	NNRTI-resistant (RT L100V)	-	TZM-bl	fold resistance	7.5
Cc1cc(C)cc(Sc2c(C(C)C)c(=O)[nH]c(=S)n2COCCO)c1	-	IIIB (TIBO 82150) (RT-L100I)	syncytia	RT-L100I	-	CEM	fold resistance	1.5
Cc1ccc(-c2ccc3c(c2)C=C(C(=O)Nc2ccc(C[N+](C)(C)C4CCOCC4)cc2)CCC3)cc1	5 µM	COT6 CLADE C	p24	-	-	PBMC	inhibition	100%
Cc1cc2cn[nH]c2cc1NC(=O)COc1ccc(Cl)cc1C(=O)c1cccc(C#N)c1	-	HXB2	β-galactosidase	RT-V106A Y181C	-	HeLa + HELA CD4+	fold resistance	~10

Repeating the final 3 entries:

| compound | dose | strain or isolate | read by | changes | setting | cells | read-out | value |
|---|---|---|---|---|---|---|---|---|
| Cc1cc(C)cc(Sc2c(C(C)C)c(=O)[nH]c(=S)n2COCCO)c1 | - | IIIB (TIBO 82150) (RT-L100I) | syncytia | RT-L100I | - | CEM | fold resistance | 1.5 |
| Cc1ccc(-c2ccc3c(c2)C=C(C(=O)Nc2ccc(C[N+](C)(C)C4CCOCC4)cc2)CCC3)cc1 | 5 µM | COT6 CLADE C | p24 | - | - | PBMC | inhibition | 100% |
| Cc1cc2cn[nH]c2cc1NC(=O)COc1ccc(Cl)cc1C(=O)c1cccc(C#N)c1 | - | HXB2 | β-galactosidase | RT-V106A Y181C | - | HeLa + HELA CD4+ | fold resistance | ~10 |